A mixed list of measured activities; the numbers were collected in NIAID ChemDB.

Common to all: tests on isolated targets; agent: HIV-1; protein: Protease

Blank or dashed fields: not listed here.

| compound | changes | method | read-out | tested at | value |
|---|---|---|---|---|---|
| O=S1(=O)N(Cc2ccc(CO)cc2)[C@H](COc2ccccc2)[C@H](O)[C@@H](O)[C@@H](COc2ccccc2)N1Cc1ccc(CO)cc1 | PR-G48V L90M |  | fold resistance |  | 2.65 |
| O=c1c(O)c(-c2ccccc2O)oc2cc(O)cc(O)c12 |  | fluorescence | inhibition | 50 µg/mL | 41.4% |
| Cc1cc(SC2=C(O)C[C@@](CCc3ccc(N)cc3)(C(C)C)OC2=O)c(C(C)(C)C)cc1CO | PR-G48V L90M | HPLC / absorbance | fold resistance |  | 0.8 |
| CC(C)(C)OC(=O)N[C@@H](Cc1ccccc1)[C@H](O)CNC[C@@H](O)[C@H](Cc1ccc(OCC(=O)N2CCOCC2)cc1)NC(=O)OC(C)(C)C | PR-A71T | HPLC | fold resistance |  | 1.74 |
| O=c1c(O)c(-c2ccc(O)cc2O)oc2cc(O)cc(O)c12 |  | fluorescence | inhibition | 50 µg/mL | 68.8% |
| CN1[C@H](COc2ccccc2)[C@H](O)[C@@H](O)[C@@H](COc2ccccc2)N(C)S1(=O)=O | PR-G48V L90M |  | fold resistance |  | 4.93 |
| O=C1OC2[C@H]3COC(=O)c4cc(O)c(O)c5c4C4C(=CC(=O)[C@@](O)(O5)C4(O)O)C(=O)O[C@@H]2[C@@H](OC(=O)c2cc(O)c(O)c4c2C2C1=CC(=O)[C@](O)(O4)C2(O)O)[C@H](OC(=O)c1cc(O)c(O)c(O)c1)O3 |  | fluorescence | inhibition | 50 µg/mL | 61.1% |
| CC(C)[C@H](NC(=O)OCc1ccccn1)C(=O)N[C@@H](Cc1ccccc1)[C@@H](O)[C@H](O)[C@H](Cc1ccccc1)NC(=O)[C@@H](NC(=O)OCc1ccccn1)C(C)C |  | fluorescence | IC50 |  | <0.001 µM |
| O=S1(=O)N(Cc2cccc(I)c2)[C@H](COc2ccccc2)[C@H](O)[C@@H](O)[C@@H](COc2ccccc2)N1Cc1cccc(I)c1 | PR-G48V L90M |  | fold resistance |  | 6.58 |
| CC(C)[C@H](NC(=O)OCc1ccccc1)C(=O)N[C@@H](Cc1ccccc1)[C@H](O)[C@H](Cc1ccccc1)NC(=O)[C@@H](NC(=O)OCc1cccnc1)C(C)C |  | fluorescence | inhibition | 0.005 µM | 59% |
| CC(C)[C@H](NC(=O)N(C)Cc1ccccn1)C(=O)N[C@@H](Cc1ccccc1)[C@H](O)[C@H](O)[C@H](Cc1ccccc1)NC(=O)[C@@H](NC(=O)N(C)Cc1ccccn1)C(C)C | PR-M46I | fluorescence | fold resistance |  | 1.43 |
| CC(C)[C@H](NC(=O)N(C)Cc1ccccn1)C(=O)N[C@@H](Cc1ccccc1)[C@H](O)[C@H](O)[C@H](Cc1ccccc1)NC(=O)[C@@H](NC(=O)N(C)Cc1ccccn1)C(C)C | PR-A71T | HPLC | fold resistance |  | 1.2 |
| CNC(=O)c1cccc(CN2[C@H](COc3ccccc3)[C@H](O)[C@@H](O)[C@@H](COc3ccccc3)N(Cc3cccc(C(=O)NC)c3)S2(=O)=O)c1 | PR-V82A |  | fold resistance |  | 10 |
| CC(C)[C@H](NC(=O)OCc1ccccn1)C(=O)N[C@@H](Cc1ccccc1)[C@H](O)[C@@H](O)[C@H](Cc1ccccc1)NC(=O)[C@@H](NC(=O)OCc1ccccn1)C(C)C |  | fluorescence | inhibition | 0.001 µM | 84% |
| CNC(=O)CN1[C@H](COc2ccccc2)[C@H](O)[C@@H](O)[C@@H](COc2ccccc2)N(CC(=O)NC)S1(=O)=O | PR-V82A |  | fold resistance |  | 4.4 |
| C[C@@H]1O[C@@H](Oc2c(-c3cc(O)c(O)c(O)c3)oc3cc(O)cc(O)c3c2=O)[C@H](O)[C@H](O)[C@H]1O |  | HPLC | inhibition | 50 µg/mL | 31.8% |
| CC(C)[C@H](NC(=O)CCN1CCOCC1)C(=O)N[C@@H](Cc1ccccc1)[C@@H](O)[C@H](O)[C@H](Cc1ccccc1)NC(=O)[C@@H](NC(=O)CCN1CCOCC1)C(C)C |  | fluorescence | inhibition | 0.1 µM | 82% |
| O=C(O[C@@H]1O[C@@H]2COC(=O)c3cc(O)c(O)c(O)c3-c3c(cc(O)c(O)c3O)C(=O)O[C@H]([C@H]1O)[C@@H]2O)c1cc(O)c(O)c(O)c1 |  | HPLC | inhibition | 50 µg/mL | 100% |
| Cc1cc(SC2=C(O)C[C@@](CCc3ccc(O)cc3)(C(C)C)OC2=O)c(C(C)(C)C)cc1CO | PR-D30N | HPLC / absorbance | fold resistance |  | 4.3 |
| CC(C)[C@H](NC(=O)CCc1ccccn1)C(=O)N[C@@H](Cc1ccccc1)[C@@H](O)[C@H](O)[C@H](Cc1ccccc1)NC(=O)[C@@H](NC(=O)CCc1ccccn1)C(C)C |  | fluorescence | IC50 |  | <0.001 µM |

Repeating the final 2 entries:

Cc1cc(SC2=C(O)C[C@@](CCc3ccc(O)cc3)(C(C)C)OC2=O)c(C(C)(C)C)cc1CO ; changes: PR-D30N ; method: HPLC / absorbance ; read-out: fold resistance ; value: 4.3
CC(C)[C@H](NC(=O)CCc1ccccn1)C(=O)N[C@@H](Cc1ccccc1)[C@@H](O)[C@H](O)[C@H](Cc1ccccc1)NC(=O)[C@@H](NC(=O)CCc1ccccn1)C(C)C ; method: fluorescence ; read-out: IC50 ; value: <0.001 µM

ICn is the concentration giving n% inhibition. Fold resistance: result on the changed form divided by that on wild type. Inhibition is in % at the dose shown (toxicity tests: loss of growth or viability). Neighbouring rows are from separate reports.